Anti-infective test results gathered from many reports (values: NIAID ChemDB through PubChem).

Shared fields: cytotoxicity tests; cell line: PBMC; read-out: CC50

An empty or dashed field is not shown. Conditions beyond the fields shown may differ between rows. CCn is the concentration with n% toxicity to the cells.

smiles | read by | value
CN(C)CCSc1ccc(-c2cc(-c3ccc(SCCN(C)C)cc3)ncn2)cc1 | - | 100 µM
COc1cc2ccnc3c2c(c1OC)N(CCC(C)C)C=C3 | - | 2.6 µM
O=C(NCCCc1ccc2c(n1)NCCC2)Nc1cccc(F)c1 | - | 50 µM
CCCCCCCCCCCCCCCCCCOCCOP(=O)(O)CO[C@H](CO)Cn1cnc2c(N)ncnc21 | flow cytometry | 16.5 µM
Cc1cc(C)cc(N2C(=O)CCC2(CN)c2c(Cl)cccc2Cl)c1 | absorbance | >100 µM
CCCc1cc(=O)oc2c3c(c4c(c12)OC(C)(C)C=C4)O[C@H](C)C[C@@H]3O | trypan blue | 594 µM
Cc1ccc(NC(C#N)c2ccccc2OCc2ccccc2)cc1 | absorbance | 15.6 µM
CCn1cc(C(=O)O)c(=O)c2cc(F)c(N3CCN(c4ccccc4OC)CC3)c(OC(F)F)c21 | - | 11 µM
Cc1ccc(N2C(=O)CCC2(C#N)c2ccc(OCc3ccccc3)cc2)cc1 | absorbance | >100 µM
C=CCNc1nc(N)nc2c1ncn2C/C(C)=C/CP(=O)(OCOC(=O)C(C)(C)C)OCOC(=O)C(C)(C)C | absorbance | 24.1 µM
O=c1[nH]cnc2c1ncn2[C@@H]1C[C@H](CO)C(F)(F)C1 | - | >100 µM
CCCCCCCCCCCCCCCCOCCCOP(=O)(NCC(=O)OC)OC[C@@H]1OC[C@H](n2cc(C)c(=O)[nH]c2=O)O1 | MTT | >100 µM
CC(C)Oc1ccc(C2(C#N)CCC(=O)N2c2ccccc2)cc1 | absorbance | 95.8 µM
CCOCn1c(Cc2ccccc2)c(C(C)C)c(=O)[nH]c1=O | - | >100 µM
CC(C)(C)[Si](C)(C)O[C@H]1[C@H](CO)O[C@H](n2ccc(N)nc2=O)C1(F)F | - | >100 µM
O=C(NCCc1ccc2c(n1)NCCC2)Nc1cccc(-c2cccc(Cl)c2)n1 | - | 50 µM
CCCCCCCCCCCCCCCCCCOCCOP(=O)(N[C@@H](C)C(=O)OC)OC[C@@H]1OC[C@H](n2cc(C)c(=O)[nH]c2=O)O1 | MTT | 61.4 µM
Cc1c2ccnc(Cl)c2cc2c3cn(C)ccc-3nc12 | - | >2.5 µM
O=C(NCCc1ccc2c(n1)NCCC2)N1CCc2ccccc21 | - | 50 µM
Cc1cn([C@H]2C[C@H](N=[N+]=[N-])[C@@H](CO)O2)c(=O)[nH]c1=O | MTS | >100 µM
C=Cc1c(C)c2cc3[nH]c(cc4nc(cc5nc(cc1[nH]2)C(C)=C5CCC(=O)O)C(CCC(=O)O)=C4C)c(C)c3C=C | - | >100 µM
CC(C)CCC[C@@H](C)[C@H]1CCC2C3CCC4C[C@@H](O[C@H]5O[C@H](COS(=O)(=O)[O-])[C@@H](OS(=O)(=O)[O-])[C@H](OS(=O)(=O)[O-])[C@@H]5O[C@H]5O[C@H](COS(=O)(=O)[O-])[C@@H](OS(=O)(=O)[O-])[C@H](O[C@H]6O[C@H](COS(=O)(=O)[O-])[C@@H](OS(=O)(=O)[O-])[C@H](O[C@H]7O[C@H](COS(=O)(=O)[O-])[C@@H](OS(=O)(=O)[O-])[C@H](OS(=O)(=O)[O-])[C@@H]7OS(=O)(=O)[O-])C6OS(=O)(=O)[O-])[C@@H]5OS(=O)(=O)[O-])CC[C@]4(C)C3CC[C@@]21C | - | >800 µg/mL
Cc1cc(C)c(Nc2nc(N)nc(Nc3ccc(C#N)nc3)n2)c(C)c1 | MTT | 48.7 µg/mL
OCCNc1nc(-c2cccs2)cc(-c2cccs2)n1 | - | 100 µM
CCCCCCCC/C=C\CCCCC(CCC(=O)O)NC1c2ccc3cc4c5c6c(cc7ccc8cc9cc1c1c9c9c8c7c6c9c6c1c2c3c56)C4 | trypan blue | >1300 µM
Nc1ncnc2c1ncn2[C@H]1C=C(F)[C@@H](CO)C1 | - | >100 µM
Nc1ccn([C@@H]2CS[C@H](CO)O2)c(=O)n1 | MTT | >1000 µM
C[C@@H](NC(=O)c1ccc2cncc(Br)c2n1)c1ccccc1 | - | 27.3 µg/mL
Cc1cc(C#N)cc(C)c1Oc1nc(Nc2ccc(C#N)cc2)nc(N)c1Br | MTT | 25.12 µM
C=CCc1ccccc1OP(=O)(N[C@@H](C)C(=O)OC)OC[C@@H]1OC[C@H](n2cc(C)c(=O)[nH]c2=O)O1 | MTT | >100 µM
CCCCCCCCS(=O)(=O)Oc1c(OC)cc2ccnc3c2c1N(C)C=C3 | - | 2.3 µM
COc1ccc(Cl)cc1NC(=O)NCCc1ccc2c(n1)NCCC2 | - | 3 µM
CN(C)CCCNC(=O)CCNC(=O)c1cc(NC(=O)c2nc(NC(=O)CCNC(=O)c3cc(NC(=O)c4nc(NC(=O)CCCNC(=O)c5cc(NC(=O)c6nc(NC(=O)CCNC(=O)c7cc(NC(=O)c8nccn8C)cn7C)cn6C)cn5C)cn4C)cn3C)cn2C)cn1C | - | >1 µM
CCCCCCCCCCCCN1C=Cc2cc(OC)c(OC)c3c2c1cc[n+]3CCCCCCCCCCCC | - | <1 µM
CCc1c(C)[nH]c(=O)c(N(C)C)c1Cc1cc(C)cc(C)c1 | - | >1 µM
O=c1[nH]cnc2c1ncn2[C@H]1C=C(F)[C@@H](CO)C1 | - | >100 µM
CCCCCCCCCCCCN1C=Cc2nccc3cc(OC)c(OC)c1c23 | - | <1 µM
Nc1ncnc2c1ncn2[C@H]1O[C@@H](CO)[C@H](O)C1(F)F | - | >100 µM
CCCOc1ccccc1CNC(=O)c1ccc2cnccc2n1 | - | 6 µg/mL
NCC(N)=O | - | >500 µM
COC(=O)C(C)(C)NP(=O)(OC[C@@H]1OC[C@H](n2cc(C)c(=O)[nH]c2=O)O1)Oc1ccccc1 | MTT | >100 µM
CN(C)CCSc1nccc(-c2cccn2C)n1 | - | 100 µM
COC(=O)[C@@H](NP(=O)(OC[C@@H]1OC[C@H](n2cc(C)c(=O)[nH]c2=O)O1)Oc1ccccc1)C(C)C | MTT | >100 µM
CCCC[n+]1ccc2cc(OC)c(OC)c3c2c1C=CN3 | - | 13.7 µM
O=C(NCCc1cccc(-n2cccn2)n1)NCc1ccc(Cl)c(Cl)c1 | - | 15.3 µM
CN(C)CCSc1nccc(-c2cccs2)n1 | - | 100 µM
CCOc1ccccc1NC(=O)NCCc1ccc2c(n1)NCCC2 | - | 3.4 µM
C[Si](O)(O[Si](C)(CCCn1cnc2c(N)ncnc21)c1ccccc1)c1ccccc1 | - | 80 µM
CCCN1C=Cc2nccc3cc(OC)c(OC)c1c23 | - | 4.3 µM
O=C(NCCc1nccc(-n2ccnc2)n1)NCc1ccc(Cl)c(Cl)c1 | - | 50 µM
Cc1cn([C@H]2CO[C@@H](COP(=O)(N[C@@H](C)C(=O)OCc3ccccc3)Oc3ccccc3Cl)O2)c(=O)[nH]c1=O | MTT | >100 µM
N#CC1(c2ccc(OCc3ccccc3)cc2)CCC(=O)N1Cc1ccccc1 | absorbance | 5.9 µM
CCCCCCCCCCCCCCCCCCOCCOP(=O)(O)CO[C@H](CO)Cn1cnc2c(N)nc(N)nc21 | flow cytometry | 6 µM
CC(=O)c1c(C)nc(-c2ccccc2)nc1NC(=O)c1ccccc1 | trypan blue | >50 µM
O=C(O)CN(CCN(CC(=O)O)Cc1cnc2c(O)cccc2c1)CC(=O)O | MTT | >50 µM
CCOC(=O)c1cc(O)c(O)c(O)c1 | MTS | >200 µM
NC(=NCCC[C@H](N)C(=O)O)NC1c2ccc3cc4c5c6c(cc7ccc8cc9cc1c1c9c9c8c7c6c9c6c1c2c3c56)C4 | trypan blue | >600 µM
CCCCCCCCC[n+]1ccc2cc(OC)c(OC)c3c2c1C=CN3 | - | 3.2 µM
Cc1cn([C@@H]2O[C@@H](CO)[C@H](O[Si](C)(C)C(C)(C)C)C2(F)F)c(=O)[nH]c1=O | - | >100 µM
O=C(O)c1ccc(-c2c3nc(c(-c4ccc(C(=O)O)cc4)c4ccc([nH]4)c(-c4ccc(C(=O)O)cc4)c4nc(c(-c5ccc(C(=O)O)cc5)c5ccc2[nH]5)C=C4)C=C3)cc1 | - | >100 µM
Cc1cn([C@H]2CO[C@@H](CO[P@@]3(=O)OCC[C@@H](c4cccc(Cl)c4)O3)O2)c(=O)[nH]c1=O | MTT | >100 µM
Cc1ccc(N2C(=O)CCC2(CN)c2ccc(OCc3ccccc3)cc2)cc1 | absorbance | 15.9 µM
CC1CC(C)CN(S(=O)(=O)c2ccccc2[N+](=O)[O-])C1 | trypan blue | >50 µM
CN(C)CCNc1nccc(-c2nccs2)n1 | - | 100 µM
Cc1ccc(-c2c3nc(c(-c4ccc(C)cc4)c4ccc([nH]4)c(-c4ccc(C)cc4)c4nc(c(-c5ccc(C)cc5)c5ccc2[nH]5)C=C4)C=C3)cc1 | - | >100 µM
Cc1ccn(-c2cccc(CCNC(=O)Nc3cccc(F)c3)n2)n1 | - | 50 µM
Cc1c(-c2cccc(SCCN(C)C)c2)ncnc1-c1cccc(SCCN(C)C)c1 | - | 10 µM
CN(Cc1ccc(Cl)c(Cl)c1)C(=O)CCc1ccc2c(n1)NCCC2 | - | 16 µM
COc1ccc(C(=O)N2CCCC2(C#N)c2ccccc2)cc1[N+](=O)[O-] | absorbance | >100 µM
C[n+]1ccc(-c2c3nc(c(-c4cc[n+](C)cc4)c4ccc([nH]4)c(-c4cc[n+](C)cc4)c4nc(c(-c5cc[n+](C)cc5)c5ccc2[nH]5)C=C4)C=C3)cc1 | - | >100 µM
NC(=O)c1cnn([C@@H]2C=C(CO)[C@@H](O)[C@H]2O)c1 | - | >100 µM
Cc1cn([C@H]2C[C@H](N=[N+]=[N-])[C@@H](COC(=O)OC[C@H]3O[C@H]3CO)O2)c(=O)[nH]c1=O | - | >20 µM
CN(C)CCSc1nc(-c2ccccc2)c2ccccc2n1 | - | 100 µM

For reference, 11 entries again:

O=c1[nH]cnc2c1ncn2[C@@H]1C[C@H](CO)C(F)(F)C1 ; value: >100 µM
C[n+]1ccc(-c2c3nc(c(-c4cc[n+](C)cc4)c4ccc([nH]4)c(-c4cc[n+](C)cc4)c4nc(c(-c5cc[n+](C)cc5)c5ccc2[nH]5)C=C4)C=C3)cc1 ; value: >100 µM
Nc1ccn([C@@H]2CS[C@H](CO)O2)c(=O)n1 ; read by: MTT ; value: >1000 µM
CCCCCCCCCCCCCCCCOCCCOP(=O)(NCC(=O)OC)OC[C@@H]1OC[C@H](n2cc(C)c(=O)[nH]c2=O)O1 ; read by: MTT ; value: >100 µM
Cc1c2ccnc(Cl)c2cc2c3cn(C)ccc-3nc12 ; value: >2.5 µM
CCCCCCCC/C=C\CCCCC(CCC(=O)O)NC1c2ccc3cc4c5c6c(cc7ccc8cc9cc1c1c9c9c8c7c6c9c6c1c2c3c56)C4 ; read by: trypan blue ; value: >1300 µM
CN(C)CCSc1ccc(-c2cc(-c3ccc(SCCN(C)C)cc3)ncn2)cc1 ; value: 100 µM
C=CCc1ccccc1OP(=O)(N[C@@H](C)C(=O)OC)OC[C@@H]1OC[C@H](n2cc(C)c(=O)[nH]c2=O)O1 ; read by: MTT ; value: >100 µM
CCOc1ccccc1NC(=O)NCCc1ccc2c(n1)NCCC2 ; value: 3.4 µM
CCCCCCCCCCCCCCCCCCOCCOP(=O)(N[C@@H](C)C(=O)OC)OC[C@@H]1OC[C@H](n2cc(C)c(=O)[nH]c2=O)O1 ; read by: MTT ; value: 61.4 µM
Nc1ncnc2c1ncn2[C@H]1C=C(F)[C@@H](CO)C1 ; value: >100 µM